{
  "source": "paper PMC10508830",
  "about": "(Antiviral research, 2023)",
  "key": {"[1]": {"target": "NA of clade 2.3.4.4b A(H5N1) viruses lacking the flagged NA substitutions (n = 15) (Influenza A virus, UniProt Q9Q0U7)", "experiment": "fluorescence-based NI assay, baseline", "assay_type": "biochemical"}, "[2]": {"target": "NA of A/black vulture/Maryland/22-012407-001/2022 (Influenza A virus (H5N1), UniProt Q9Q0U7)", "experiment": "fluorescence-based NI assay", "assay_type": "biochemical", "settings": "vulture/MD/22"}, "[3]": {"target": "NA of A/Canada goose/Wyoming/22-011671-001/2022 (Influenza A virus, UniProt Q9Q0U7)", "experiment": "fluorescence-based NI assay", "assay_type": "biochemical, influenza A(H5N1) virus", "settings": "goose/WY/22"}, "[4]": {"target": "NA of A/Cooper's hawk/Minnesota/22-012931-001/2022 (Influenza A virus, UniProt Q9Q0U7)", "experiment": "fluorescence-based NI assay", "assay_type": "biochemical, influenza A(H5N1) virus", "settings": "hawk/MN-1/22"}, "[5]": {"target": "NA of A/fox/Michigan/22-014536-004/2022 (del50-70) (Influenza A virus, UniProt Q9Q0U7)", "experiment": "fluorescence-based NI assay", "assay_type": "biochemical, influenza A(H5N1) virus", "settings": "fox/MI/22, NA del50-70"}, "[6]": {"target": "NA of A/Alabama/03/2020 A(H1N1)pdm09 (H275Y) (Influenza A virus, UniProt A0A0X9QTS2, H275Y)", "experiment": "fluorescence-based NI assay, reference virus", "assay_type": "biochemical"}, "[7]": {"target": "NA of A/bald eagle/Florida/22-006544-004/2022 (Influenza A virus, UniProt Q9Q0U7)", "settings": "eagle/FL/22"}, "[8]": {"target": "NA of A/turkey/Iowa/22-012098-001/2022 (Influenza A virus, UniProt Q9Q0U7)", "settings": "turkey/IA/22"}, "[9]": {"target": "NA of A/red-shouldered hawk/Minnesota/22-012000-004/2022 (Influenza A virus, UniProt Q9Q0U7)", "settings": "hawk/MN-4/22"}, "[10]": {"target": "NA of A/fox/Wisconsin/22-013774-002/2022 (Influenza A virus, UniProt Q9Q0U7)", "settings": "fox/WI-2/22"}, "[11]": {"target": "NA of A/chicken/Pennsylvania/22-012092-006/2022 (G105S) (Influenza A virus (H5N1), UniProt Q9Q0U7, G105S)"}, "[12]": {"target": "NA of A/chicken/Pennsylvania/22-012092-010/2022 (G105S) (Influenza A virus (H5N1), UniProt Q9Q0U7, G105S)"}, "[13]": {"target": "NA of A/bald eagle/Wyoming/22-013015-001/2022 (S82L, V114A) (Influenza A virus, UniProt Q9Q0U7, S82L/V114A)"}, "[14]": {"target": "NA of A/chicken/Idaho/22-011347-004/2022 (I117T) (Influenza A virus (H5N1), UniProt Q9Q0U7, I117T)"}, "[15]": {"target": "NA of A/skunk/Washington/22-019274-001/2022 (I117T) (Influenza A virus, UniProt Q9Q0U7, I117T)"}, "[16]": {"target": "NA of A/fox/Wisconsin/22-014746-030/2022 (V149I, N355S) (Influenza A virus, UniProt Q9Q0U7, N355S/V149I)"}, "[17]": {"target": "NA of A/Virginia opossum/Iowa/22-016780-001/2022 (I188T) (Influenza A virus, UniProt Q9Q0U7)"}, "[18]": {"target": "NA of A/dolphin/Florida/22-025319-002/2022 (S247N) (Influenza A virus (H5N1), UniProt Q9Q0U7, S247N)"}, "[19]": {"target": "NA of A/black vulture/Florida/22-010358-001/2022 (N295D) (Influenza A virus, UniProt Q9Q0U7, N295D)"}, "[20]": {"target": "NA of A/black vulture/Florida/22-012331-001/2022 (N295S, T438N) (Influenza A virus, UniProt Q9Q0U7, N295S/T438N)"}, "[21]": {"target": "NA of A/black vulture/Florida/22-012333-001/2022 (N/S295, T/N438, mixed population) (Influenza A virus (H5N1), UniProt Q9Q0U7)"}, "[22]": {"target": "NA of A/black vulture/Florida/22-012333-001/2022 clone1 (N295S) (Influenza A virus (H5N1), UniProt Q9Q0U7, N295S)"}, "[23]": {"target": "NA of A/black vulture/Florida/22-012333-001/2022 clone2 (T438N) (Influenza A virus (H5N1), UniProt Q9Q0U7, T438N)"}, "[24]": {"target": "NA of A/black vulture/Florida/22-012333-001/2022 clone3 (N295S, T438N) (Influenza A virus (H5N1), UniProt Q9Q0U7, N295S/T438N)"}, "[25]": {"target": "NA of A/harbor seal/Maine/22-020983-002/2022 (T362I) (Influenza A virus, UniProt Q9Q0U7, T362I)"}, "[26]": {"target": "NA of A/chicken/Michigan/22-013961-001/2022 (I443T) (Influenza A virus (H5N1), UniProt Q9Q0U7, I443T)"}, "[27]": {"target": "NA of A/Illinois/45/2019 A(H1N1)pdm09 (Influenza A virus, UniProt A0A0X9QTS2)", "settings": "read-out: Mean IC50 ± SD; reference IL/45/19 A(H1N1)pdm09; wildtype NA"}, "[28]": {"settings": "read-out: Mean IC50 ± SD, no NA change"}, "[29]": {"settings": "relative to median IC50 A(H5N1)"}},
  "data": [
    {"smiles": "CCC(CC)O[C@@H]1C=C(C(=O)O)C[C@H](N=C(N)N)[C@H]1NC(=O)CF", "values": [
      {"measurement": "relative potency at inhibiting NA activity", "setting": "[1]; among the five NA inhibitors tested", "value": "most potent"},
      {"measurement": "potency at inhibiting NA activity compared to oseltamivir (median IC50)", "setting": "[1]; baseline clade 2.3.4.4b viruses", "value": 67, "unit": "fold"},
      {"measurement": "IC50", "setting": "[1]; read-out: Median IC50 A(H5N1), baseline susceptibility, viruses lacking flagged NA substitutions (n = 15)", "value": 0.04, "unit": "nM"},
      {"measurement": "IC50", "setting": "[2]; [28]", "value": 0.05, "unit": "nM"},
      {"measurement": "IC50 fold-change", "setting": "[2]; [29]", "value": 1, "unit": "fold"},
      {"measurement": "IC50 fold-change", "setting": "[3]; [29]", "value": 1, "unit": "fold"},
      {"measurement": "IC50", "setting": "[3]; [28]", "value": 0.03, "unit": "nM"},
      {"measurement": "IC50 fold-change", "setting": "[4]; [29]", "value": 1, "unit": "fold"},
      {"measurement": "IC50", "setting": "[4]; [28]", "value": 0.04, "unit": "nM"},
      {"measurement": "IC50 fold-change", "setting": "[5]; [29]", "value": 1, "unit": "fold"},
      {"measurement": "IC50", "setting": "[5]; read-out: Mean IC50 ± SD", "value": 0.04, "unit": "nM"},
      {"measurement": "IC50 fold-change", "setting": "[6]; AL/03/20 A(H1N1)pdm09, relative to NA sequence-matched wildtype reference virus IC50", "value": 8, "unit": "fold"},
      {"measurement": "IC50", "setting": "[6]; read-out: Mean IC50 ± SD, reference AL/03/20 A(H1N1)pdm09", "value": 0.76, "unit": "nM"},
      {"measurement": "IC50 fold-change", "setting": "[7]; [29]", "value": 1, "unit": "fold"},
      {"measurement": "IC50", "setting": "[7]; [28]", "value": 0.04, "unit": "nM"},
      {"measurement": "IC50", "setting": "[8]; [28]", "value": 0.04, "unit": "nM"},
      {"measurement": "IC50 fold-change", "setting": "[8]; [29]", "value": 1, "unit": "fold"},
      {"measurement": "IC50 fold-change", "setting": "[9]; [29]", "value": 1, "unit": "fold"},
      {"measurement": "IC50", "setting": "[9]; [28]", "value": 0.03, "unit": "nM"},
      {"measurement": "IC50 fold-change", "setting": "[10]; [29]", "value": 1, "unit": "fold"},
      {"measurement": "IC50", "setting": "[10]; [28]", "value": 0.04, "unit": "nM"},
      {"measurement": "IC50 fold-change", "setting": "[11]; chicken/PA-6/22, relative to median IC50 A(H5N1)", "value": 2, "unit": "fold"},
      {"measurement": "IC50", "setting": "[11]; read-out: Mean IC50 ± SD, chicken/PA-6/22", "value": 0.06, "unit": "nM"},
      {"measurement": "IC50 fold-change", "setting": "[12]; chicken/PA-10/22, relative to median IC50 A(H5N1)", "value": 2, "unit": "fold"},
      {"measurement": "IC50", "setting": "[12]; read-out: Mean IC50 ± SD, chicken/PA-10/22", "value": 0.08, "unit": "nM"},
      {"measurement": "IC50 fold-change", "setting": "[13]; eagle/WY/22, relative to median IC50 A(H5N1)", "value": 2, "unit": "fold"},
      {"measurement": "IC50", "setting": "[13]; read-out: Mean IC50 ± SD, eagle/WY/22", "value": 0.06, "unit": "nM"},
      {"measurement": "IC50 fold-change", "setting": "[14]; chicken/ID/22, relative to median IC50 A(H5N1)", "value": 1, "unit": "fold"},
      {"measurement": "IC50", "setting": "[14]; read-out: Mean IC50 ± SD, chicken/ID/22", "value": 0.05, "unit": "nM"},
      {"measurement": "IC50", "setting": "[15]; read-out: Mean IC50 ± SD, skunk/WA/22", "value": 0.04, "unit": "nM"},
      {"measurement": "IC50 fold-change", "setting": "[15]; skunk/WA/22, relative to median IC50 A(H5N1)", "value": 1, "unit": "fold"},
      {"measurement": "IC50 fold-change", "setting": "[16]; fox/WI-30/22, relative to median IC50 A(H5N1)", "value": 1, "unit": "fold"},
      {"measurement": "IC50", "setting": "[16]; read-out: Mean IC50 ± SD, fox/WI-30/22", "value": 0.05, "unit": "nM"},
      {"measurement": "IC50 fold-change", "setting": "[17]; opossum/IA/22, relative to median IC50 A(H5N1)", "value": 1, "unit": "fold"},
      {"measurement": "IC50", "setting": "[17]; read-out: Mean IC50 ± SD, opossum/IA/22", "value": 0.05, "unit": "nM"},
      {"measurement": "IC50 fold-change", "setting": "[18]; dolphin/FL-2/22 (dolphin/FL/22), relative to median IC50 A(H5N1)", "value": 2, "unit": "fold"},
      {"measurement": "IC50", "setting": "[18]; read-out: Mean IC50 ± SD, dolphin/FL-2/22 (dolphin/FL/22)", "value": 0.09, "unit": "nM"},
      {"measurement": "IC50", "setting": "[19]; read-out: Mean IC50 ± SD, vulture/FL-58/22", "value": 0.15, "unit": "nM"},
      {"measurement": "IC50 fold-change", "setting": "[19]; vulture/FL-58/22, relative to median IC50 A(H5N1)", "value": 4, "unit": "fold"},
      {"measurement": "IC50", "setting": "[20]; read-out: Mean IC50 ± SD, vulture/FL-31/22", "value": 2.19, "unit": "nM"},
      {"measurement": "IC50 fold-change", "setting": "[20]; vulture/FL-31/22, relative to median IC50 A(H5N1)", "value": 55, "unit": "fold"},
      {"measurement": "IC50", "setting": "[21]", "value": 0.14, "unit": "nM"},
      {"measurement": "IC50", "setting": "[22]", "value": 0.28, "unit": "nM"},
      {"measurement": "IC50 fold-change", "setting": "[22]; clone 1, NA N295S, relative to median IC50 A(H5N1)", "value": 7, "unit": "fold"},
      {"measurement": "IC50", "setting": "[23]", "value": 0.06, "unit": "nM"},
      {"measurement": "IC50 fold-change", "setting": "[23]; clone 2, NA T438N, relative to median IC50 A(H5N1)", "value": 2, "unit": "fold"},
      {"measurement": "IC50", "setting": "[24]", "value": 2.03, "unit": "nM"},
      {"measurement": "IC50 fold-change", "setting": "[24]; clone 3, NA N295S, T438N, relative to median IC50 A(H5N1)", "value": 51, "unit": "fold"},
      {"measurement": "IC50", "setting": "[25]; read-out: Mean IC50 ± SD, seal/ME-2/22", "value": 0.04, "unit": "nM"},
      {"measurement": "IC50 fold-change", "setting": "[25]; seal/ME-2/22, relative to median IC50 A(H5N1)", "value": 1, "unit": "fold"},
      {"measurement": "IC50 fold-change", "setting": "[26]; chicken/MI/22, relative to median IC50 A(H5N1)", "value": 1, "unit": "fold"},
      {"measurement": "IC50", "setting": "[26]; read-out: Mean IC50 ± SD, chicken/MI/22", "value": 0.04, "unit": "nM"},
      {"measurement": "IC50", "setting": "[27]", "value": 0.09, "unit": "nM"}
    ]}
  ]
}
